Measurements taken from US8268803B2, “5, 6-ring annulated indole derivatives and use thereof” (Merck Sharp & Dohme Corp., priority 2006, dated 2012).

Key:
[1] = molecular target: HCV NS5B polymerase (NS5BΔCT21, from HCV-Con 1 isolate, genotype 1b) (Hepatitis C virus genotype 1b, UniProt Q9WMX2); assay: HCV NS5B Polymerase Inhibition Assay; conditions: incorporation of radiolabeled CTP, 22° C. for 2 hours
From the text: A chemically synthesized 75-mer version, designated DCoH75, whose sequence matches the 3′-end of D-RNA, and DCoH75ddC, where the 3′-terminal cytidine of DCoH75 is replaced by dideoxycytidine, were used for assaying the NS5B enzyme activity as described in Ferrari et al., 12th International Symposium on HCV and Related Viruses, P-306 (2005). The sequence of the template RNA was: 5′-UGUGCCGGUCUUUCUGAACGGGAUAUAAACCUGGCCAGCUUCAUCGAACAAGUUGCCGUGUCUAUGACAUAGAUC-3′ (SEQ ID NO: 1). A soluble C-terminal 21-amino acid truncated NS5B enzyme form (NS5BΔCT21, from HCV-Con 1 isolate, genotype 1b, Genbank accession number AJ238799) was produced and purified from Escherichia coli as C-terminal polyhistidine-tagged fusion protein as described in Ferrari et al., J. Virol. 73:1649-1654 (1999). […] Reactions were incubated at 22° C. for 2 hours, then stopped by adding 150 mM EDTA, washed in DE81 filter plate in 0.5M di-basic sodium phosphate buffer, pH 7.0, and counted using Packard TopCount after the addition of scintillation cocktail. Polynucleotide synthesis was monitored by the incorporation of radiolabeled CTP. The effect of the Compounds of Formula (I) on the polymerase activity was evaluated by adding various concentrations of a Compound of Formula (I), typically in 10 serial 2-fold dilutions, to the assay mixture. […]

[2] = test system: HCV replicon cells (replicon RNA level); assay: Cell-Based HCV Replicon Assay; conditions: replicon RNA level by real time PCR (Taqman), cells harvested on day 3
Description: To measure cell-based anti-HCV activity of the a Compound of Formula (I), replicon cells were seeded at 5000 cells/well in 96-well collagen I-coated Nunc plates in the presence of the Compound of Formula (I). Various concentrations of a Compound of Formula (I), typically in 10 serial 2-fold dilutions, were added to the assay mixture, with the starting concentration ranging from 250 μM to 1 μM. The final concentration of DMSO was 0.5%, fetal bovine serum was 5%, in the assay media. Cells were harvested on day 3 by the addition of 1× cell lysis buffer (Ambion cat #8721). The replicon RNA level was measured using real time PCR (Taqman assay). The amplicon was located in 5B. The PCR primers were: 5B.2F, ATGGACAGGCGCCCTGA (SEQ ID NO: 2); 5B.2R, […] (SEQ ID NO: 3); the probe sequence was FAM-labeled CACGCCATGCGCTGCGG (SEQ ID NO: 4). GAPDH RNA was used as endogenous control and was amplified in the same reaction as NS5B (multiplex PCR) using primers and VIC-labeled probe recommended by the manufacturer (PE Applied Biosystem). […] Alternatively, to quantitate the absolute amount of replicon RNA, a standard curve was established by including serially diluted T7 transcripts of replicon RNA in the Taqman assay. […]

SMILES: CS(=O)(=O)NC(=O)c1c(-c2ccc[nH]c2=O)c2cc3c(cc2n1Cc1cc(F)ccc1F)CCO3
- IC50 [1]: 25 to 100 nM
- EC50 [2]: > 5000 nM
